Two molecules from paper PMC7144120, “Psoralen Derivatives as Inhibitors of Mycobacterium tuberculosis Proteasome” (Molecules, 2020) can be followed below.

SMILES strings stand for the structures.

The data set concerns ß5i of IP. The data set is described as follows: Inhibition of ß5i subunit of immunoproteasome (previously published data). The settings on record: human IP vs Mtb proteasome.

On to `CC(C)C[C@H](NC(=O)[C@H](Cc1ccccc1)NC(=O)c1cnccn1)B(O)O` [Bortezomib, reference compound], for which the “selectivity towards the human IP over Mtb proteasome” value is recorded as “approximately 30 fold”.
On to `COc1ccc(C[C@H](NC(=O)[C@H](C)NC(=O)CN2CCOCC2)C(=O)N[C@@H](Cc2ccccc2)C(=O)[C@@]2(C)CO2)cc1` [PR-957, reference compound], for which the “selectivity towards the human IP over Mtb proteasome” value is reported as about 300 fold.
